Measured values from several laboratories, pooled; numbers as filed in NIAID ChemDB.

Shared fields: whole-cell or culture tests; species: Mycobacterium tuberculosis

A number after MIC or MFC names an inhibition level or a share of isolates.

SMILES,cells,read-out,changes,dose,strain,method,result
CCCCN1CCN(c2cc(O)c3c(c2)Oc2c4c(O)c5c(O)c(C)c6c(c5c2N3)C(=O)[C@@](C)(O/C=C/[C@H](OC)[C@@H](C)[C@@H](OC(C)=O)[C@H](C)[C@H](O)[C@H](C)[C@@H](O)[C@@H](C)/C=C/C=C(/C)C(=O)N4)O6)CC1,-,MIC,-,-,H37Rv,-,0.035 µg/mL
CNC(=O)[C@@H](C)[C@@H]1NC(=O)/C(=C(O)/C=C/C(C)=C/[C@@H](C)[C@@H]2O[C@]3(C)O[C@@H](C=C[C@]34CO4)[C@@H]2C)C1=O,-,MIC90,-,-,H37Rv,resazurin,200 µg/mL
CCC1CCC2(CC1)SC(C)C(=O)N2NC(=O)Cc1csc2nc(-c3ccc(Cl)cc3)cn12,VERO,EC50,-,-,H37Rv,-,<6.25 µg/mL
O=C(N/N=C/c1ccccc1)c1cnccn1,-,MIC,-,-,ATCC 27294,resazurin,>100 µg/mL
Fc1cccc(N/N=C\c2ccnc3ccccc23)c1,-,inhibition,-,6.25 µg/mL,H37Rv,BACTEC,0%
CC(C)=CCC/C(C)=C/CC1(C)SC(=O)C(C)=C1O,-,MIC50,-,-,H37Rv,-,96 µM
O=CN/N=C\c1cc(C2CCCCC2)nc2ccccc12,-,inhibition,-,6.25 µg/mL,H37Rv,BACTEC,0%
Cn1c(C(C)(C)OC(=O)Oc2ccccc2)cnc1[N+](=O)[O-],-,inhibition,-,6.25 µg/mL,H37Rv,-,17%
Oc1cc(C(O)CCc2ccccc2)ccc1Oc1ccccc1,-,MIC,-,-,H37Rv,resazurin,4 µg/mL
COc1cc2c(oc(=O)c3cc(C)cc(OC)c32)c2c(C3OC(C)C(O)C(C)(O)C3O)ccc(O)c12,-,MIC,-,-,H37Rv,-,6.3 µg/mL
CN(C)C/C=C(\c1ccc(N)cc1)c1ccc(-c2ccc(Br)cc2)cc1,-,MIC,-,-,ALI 258,-,19.5 µg/mL
O=C(Cc1csc2nc(-c3ccccc3)cn12)NN=C1CCCC1,-,inhibition,-,6.25 µg/mL,H37Rv,-,42%
CC(C)=CCCC(C)c1c2[nH]c3ccccc3sc-2c(C)c(=O)c1=O,-,inhibition,-,12.5 µg/mL,H37Rv,BACTEC,47%
S=c1oc(-c2cnccn2)nn1CNc1cscn1,-,MIC,-,-,H37Rv,-,0.1 µg/mL
CO[C@H]1/C=C/O[C@@]2(C)Oc3c(C)c(O)c4c(O)c(c5c(c4c3C2=O)Nc2c(O)cc(N3CCN(C(C)(C)C)CC3)cc2O5)NC(=O)/C(C)=C\C=C\[C@H](C)[C@H](O)[C@@H](C)[C@@H](O)[C@@H](C)[C@H](OC(C)=O)[C@@H]1C,-,MIC,-,-,H37Rv,-,0.008 µg/mL
CO/C(=N\N=C\c1ccccc1F)c1ccncc1,-,MIC,-,-,6 PI,-,>20 µg/mL
O=C(N/N=C/c1cccs1)c1cnccn1,-,MIC,-,-,ATCC 27294,resazurin,>100 µg/mL
CO/C(=N\N=C\c1cccc(C(C)(F)F)c1)c1ccncc1,-,MIC,-,-,16PI,-,>20 µg/mL
CN1CCN(C2=C(Cl)C(=O)c3ccccc3C2=O)CC1,-,inhibition,-,12.5 µg/mL,H37Rv,BACTEC,80%
C=C/C(C)=C/[C@@]1(C)SC(=O)C(C)=C1O,-,MIC50,-,-,H37Rv,-,56 µM
C1CCNC1.S=C(S)N1CCCC1,-,MIC,-,-,PAS-R,-,0.8 µg/mL
CCCCCCCCS(=O)(=O)CC(N)=O,-,MIC,-,-,401296,-,≤25 µg/mL
CCN(CC)Cn1nc(-c2cnccn2)oc1=S,-,MIC,-,-,H37Rv,-,0.1 µg/mL
CC(=O)N/N=C/c1ccc2ccccc2n1,-,inhibition,-,6.25 µg/mL,H37Rv,BACTEC,5%
C/C(=N\NC(=O)c1ccncc1)c1ccc(F)cc1,-,MIC,-,-,H37Rv,-,>20 µg/mL
CCOc1cc2c(cc1F)n([O-])c(C)c(S(=O)(=O)c1ccccc1)[n+]2=O,-,MIC,-,-,H37Rv,-,6.25 µg/mL
COC(=O)[C@]1(C)CCC[C@]2(C)C3=CC(O)[C@@]4(C(C)C)O[C@H]4[C@]3(O)CC[C@@H]12,-,MIC bound,-,-,H37Rv,BACTEC,>12.5 µg/mL
Fc1ccccc1N/N=C\c1cc(C2C3CC4CC(C3)CC2C4)nc2ccccc12,-,inhibition,-,6.25 µg/mL,H37Rv,BACTEC,93%
CC1S(=O)(=O)OCCOS1(=O)=O,-,inhibition,-,12.5 µg/mL,H37Rv,BACTEC,33%
CC(=O)N/N=C\c1ccnc2ccccc12,-,inhibition,-,6.25 µg/mL,H37Rv,BACTEC,26%
FC(F)(F)c1cc(Br)c2ccc3ncccc3c2n1,-,MIC,-,-,H37Rv,BACTEC,≥12.5 µg/mL
Fc1cccc(N/N=C/c2ccc3ccccc3n2)c1,-,inhibition,-,6.25 µg/mL,H37Rv,BACTEC,97%
CN(C)CC=C(c1ccc(Br)cc1)c1ccc(-c2ccc(Br)cc2)cc1,-,MIC,-,-,ALI 552,-,17 µg/mL
C/C(=N\NC(=O)c1ccncc1)c1cccc(Br)c1,-,MIC,-,-,6 PI,-,>20 µg/mL
CCC1CCC2(CC1)SCC(=O)N2NC(=O)Cc1csc2nc(-c3ccccc3)cn12,VERO,MIC,-,-,H37Rv,-,3.13 µg/mL
CO/C(=N\N=C\c1ccc(OC)cc1OC)c1ccncc1,-,MIC,-,-,16PI,-,>20 µg/mL
CCCCCCCCCCCCCCCCCCCCCCCCCCCCCCCC,-,MIC90,-,-,H37Rv (ATCC 27294),resazurin,62.5 µg/mL
Oc1cc(C(O)CCc2ccc(F)cc2)ccc1Oc1ccccc1,-,MIC,INH resistant,-,Clinical isolate,resazurin,6.25 µg/mL
NC(=O)c1cnccn1,-,MIC,-,-,ATCC 27294,resazurin,>100 µg/mL
CN(CC#CC#CC(C)(C)C)c1cccc2c1CCC(=O)N2,-,MIC,-,-,H37Rv,-,>6.25 µg/mL
CC1CCC(=NNC(=O)Cc2csc3nc(-c4ccccc4)cn23)CC1,-,inhibition,-,6.25 µg/mL,H37Rv,-,40%
COc1ccc(Nc2cc(=O)[nH]c(N)n2)cc1,-,inhibition,-,12.5 µg/mL,H37Rv,BACTEC,-5%
CC1CCCC2(C1)SC(C)C(=O)N2NC(=O)Cc1csc2nc(-c3ccccc3)cn12.O,-,inhibition,-,6.25 µg/mL,H37Rv,-,99%
Cc1ccc(N2C(=O)CSC2=S)cc1F,-,MIC bound,-,-,H37Rv,BACTEC,>12.5 µg/mL
CC1CCC2(CC1)SCC(=O)N2NC(=O)Cc1csc2nc(-c3ccccc3)cn12.O,-,EC50,-,-,H37Rv,-,<6.25 µg/mL
CC12C=NNC1(C)C(=O)C1(C)CN=NC1(C)C2=O,-,inhibition,-,6.25 µg/mL,H37Rv,resazurin,3%
COc1ccc(CCC(O)c2ccc(Oc3ccccc3)c(O)c2)cc1,-,MIC,-,-,H37Rv,resazurin,3.125 µg/mL
COC(=O)C1C(c2cc3cc(C)ccc3nc2Cl)C2=C(CCCC2=O)N(c2cccnc2)C1N,-,inhibition,-,6.25 µg/mL,H37Rv,-,25%
CO/C(=N\N=C\c1ccc(Cl)cc1Cl)c1ccncc1,-,MIC,-,-,6 PI,-,>20 µg/mL
Cc1ccc(Nc2c(C#N)[n+]([O-])c3cc(Cl)ccc3[n+]2[O-])cc1,-,MIC,-,-,H37Rv,-,<12.5 µg/mL
Nc1ccc2nc(NCCCO)c3ccccc3c2c1,-,MIC bound,-,-,H37Rv,BACTEC,>12.5 µg/mL
CC1SC2(CCCCC2)N(NC(=O)Cc2csc3nc(-c4ccccc4)cn23)C1=O.O.O,VERO,inhibition,-,6.25 µg/mL,H37Rv,-,98%
COc1ccc(/C(C)=N/NC(=O)c2ccncc2)cc1F,-,MIC,-,-,H37Rv,-,>20 µg/mL
CN(C)C/C=C(\c1ccc(I)cc1)c1ccc(-c2ccc(Br)cc2)cc1,-,MIC,-,-,H37Ra,-,9.5 µg/mL
Oc1cc(C(O)CCc2ccco2)ccc1Oc1ccccc1,-,MIC,INH resistant,-,Clinical isolate,resazurin,12.5 µg/mL
COC12c3c(C)cc(O)c4c(=O)occ(c34)C(=O)[C@@H]1[C@@]13COC(=O)c4c(O)cc(C)c(c41)C(=O)C2[C@H]3OC(C)=O,-,MIC bound,-,-,H37Rv,BACTEC,>12.5 µg/mL
Oc1cc(C(O)CCc2ccc(Cl)cc2)ccc1Oc1ccccc1,-,MIC,INH resistant,-,Clinical isolate,resazurin,4 µg/mL
CN1CC2=C(NC(=S)NC2c2ccccc2)/C(=C\c2ccccc2)C1.Cl,-,MIC bound,-,-,H37Rv,BACTEC,>12.5 µg/mL
CN(C)CC=C(c1ccccc1)c1ccc(-c2ccc(Br)cc2)cc1,-,MIC,-,-,ALI 282,-,≤5 µg/mL
CC1CCC2(CC1)SCC(=O)N2NC(=O)Cc1csc2nc(-c3ccc(Cl)cc3)cn12,-,inhibition,-,6.25 µg/mL,H37Rv,-,65%
CCOC(=O)C1C(c2cc3cc(Cl)ccc3nc2Cl)C2=C(CCCC2=O)N(c2cccnc2)C1N,-,inhibition,-,6.25 µg/mL,H37Rv,-,52%
COc1ccc(CCC(=O)c2ccc(Oc3ccccc3)c(O)c2)cc1,-,MIC,-,-,H37Rv,resazurin,12.5 µg/mL
O=C(O)c1ccc(NCn2nc(-c3cnccn3)oc2=S)cc1,-,MIC,-,-,H37Rv,-,0.1 µg/mL
CC(=O)Oc1c(C)c(O)c(C(C)=O)c2c1C1(C)C(=O)C(C(C)=O)=C(O)C=C1O2,-,MIC bound,-,-,H37Rv,BACTEC,>12.5 µg/mL
CO/C(=N\N=C\c1cccc(Cl)c1)c1ccncc1,-,MIC,-,-,16PI,-,>20 µg/mL
Cc1c(S(=O)(=O)c2ccccc2)[n+](=O)c2cc(F)c(F)cc2n1[O-],-,MIC,-,-,H37Rv,-,>6.25 µg/mL
Cc1ccc(CCC(O)c2ccc(Oc3ccccc3)c(O)c2)cc1,-,MIC,-,-,H37Rv,resazurin,1.56 µg/mL
C/C(=N\NC(=O)c1ccncc1)c1cccc(Cl)c1,-,MIC,-,-,6 PI,-,>20 µg/mL
C=COCc1ccc2c(c1)C[C@@H](C(C)(C)O)O2,-,MIC,-,-,H37Rv,-,45.8 µg/mL
C=CCCN1CCN(c2cc(O)c3c(c2)Oc2c4c(O)c5c(O)c(C)c6c(c5c2N3)C(=O)[C@@](C)(O/C=C/[C@H](OC)[C@@H](C)[C@@H](OC(C)=O)[C@H](C)[C@H](O)[C@H](C)[C@@H](O)[C@@H](C)/C=C/C=C(/C)C(=O)N4)O6)CC1,-,MIC,-,-,H37Rv,-,0.017 µg/mL
Cn1nc(/C=C\c2ccccc2)nc2c(=O)n(C)c(=O)nc1-2,-,MIC bound,-,-,H37Rv,BACTEC,≤12.5 µg/mL
Cc1ccc2nc(Cl)c(C3C4=C(CCCC4=O)N(c4cccnc4)C(N)C3C#N)cc2c1,-,inhibition,-,6.25 µg/mL,H37Rv,-,20%
CC[C@@H](CO)NCCN[C@@H](CC)CO,-,MIC,-,-,H37Rv,-,6.25 µg/mL
CS(=O)(=O)OCCN(CCOS(C)(=O)=O)c1ccc(C=Nc2ccc(C(=O)O)cc2)c(Cl)c1.Cl,-,MIC bound,-,-,H37Rv,BACTEC,>12.5 µg/mL
CO[C@H]1/C=C/O[C@@]2(C)Oc3c(C)c(O)c4c(O)c(c5c(c4c3C2=O)Nc2c(O)cc(N3CCN(CC4CC4)CC3)cc2O5)NC(=O)/C(C)=C\C=C\[C@H](C)[C@H](O)[C@@H](C)[C@@H](O)[C@@H](C)[C@H](OC(C)=O)[C@@H]1C,-,MIC,-,-,H37Rv,-,0.017 µg/mL
COC(=O)C1C(c2cc3cc(OC)ccc3nc2Cl)C2=C(CCCC2=O)N(c2cccnc2)C1N,-,inhibition,-,6.25 µg/mL,H37Rv,-,25%
CC(C)=CCC1(C)SC(=O)C(C)=C1O,-,MIC50,-,-,H37Rv,-,>300 µM
N[C@H](C(=O)O)[C@H]1ON=C(Cl)[C@@H]1O,-,MIC,-,-,CS-R,-,12.5 µg/mL
CCOc1cc2c(cc1F)n([O-])c(C)c(Cl)[n+]2=O,-,MIC,-,-,H37Rv,-,3.13 µg/mL
CC(C)[C@H]1OC(=O)[C@H](Cc2ccccc2)N(C)C(=O)[C@@H](C(C)C)OC(=O)[C@H](Cc2ccccc2)N(C)C(=O)[C@@H](C(C)C)OC(=O)[C@H](Cc2ccccc2)N(C)C1=O,-,MIC,-,-,H37Ra,-,12.5 µg/mL
O=C(N/N=C/c1ccco1)c1cnccn1,-,MIC,-,-,ATCC 27294,resazurin,>100 µg/mL
OC(CCl)CN1CCN(CC(O)CCl)CC1,-,MIC,-,-,H37Rv,BACTEC,≥12.8 µg/mL
CCC(C)N1CCN(c2cc(O)c3c(c2)Oc2c4c(O)c5c(O)c(C)c6c(c5c2N3)C(=O)[C@@](C)(O/C=C/[C@H](OC)[C@@H](C)[C@@H](OC(C)=O)[C@H](C)[C@H](O)[C@H](C)[C@@H](O)[C@@H](C)/C=C/C=C(/C)C(=O)N4)O6)CC1,-,MIC,-,-,H37Rv,-,0.017 µg/mL
CC1=C(O)C(C)(CCC(C)C)SC1=O,-,MIC90,-,-,H37Rv,-,>300 µM
O=C(N/N=C/c1ccc([N+](=O)[O-])o1)c1cnccn1,-,MIC,-,-,ATCC 27294,resazurin,3.12 µg/mL
CCOC(=O)N1C=NC23C(c4ccccc4)C(c4ccccc4)C12C(=O)N(C)C(=O)N3C,-,inhibition,-,6.25 µg/mL,H37Rv,resazurin,-10%
O=CN/N=C/c1ccc2ccccc2n1,-,inhibition,-,6.25 µg/mL,H37Rv,BACTEC,12%

5 of the rows above, restated:

SMILES,cells,read-out,changes,dose,strain,method,result
Oc1cc(C(O)CCc2ccccc2)ccc1Oc1ccccc1,-,MIC,-,-,H37Rv,resazurin,4 µg/mL
CN(CC#CC#CC(C)(C)C)c1cccc2c1CCC(=O)N2,-,MIC,-,-,H37Rv,-,>6.25 µg/mL
COc1ccc(CCC(=O)c2ccc(Oc3ccccc3)c(O)c2)cc1,-,MIC,-,-,H37Rv,resazurin,12.5 µg/mL
CO[C@H]1/C=C/O[C@@]2(C)Oc3c(C)c(O)c4c(O)c(c5c(c4c3C2=O)Nc2c(O)cc(N3CCN(CC4CC4)CC3)cc2O5)NC(=O)/C(C)=C\C=C\[C@H](C)[C@H](O)[C@@H](C)[C@@H](O)[C@@H](C)[C@H](OC(C)=O)[C@@H]1C,-,MIC,-,-,H37Rv,-,0.017 µg/mL
Oc1cc(C(O)CCc2ccc(Cl)cc2)ccc1Oc1ccccc1,-,MIC,INH resistant,-,Clinical isolate,resazurin,4 µg/mL

An empty or dashed field is not shown. Inhibition is in % at the dose shown (toxicity tests: loss of growth or viability). MIC bound: limit read from a one-dose screen. ECn is the concentration giving n% inhibition of infection, replication or growth. Conditions beyond the fields shown may differ between rows.